In PMC3562317:

Experiments:
Assay in all cases: purified protein
Settings in all cases: pH 7.0; 37.0 °C
[1] = tested on: CCCC(=O)Oc1ccc([N+](=O)[O-])cc1
[2] = tested on: CCCCCC(=O)Oc1ccc([N+](=O)[O-])cc1
[3] = tested on: CCCCCCCC(=O)Oc1ccc([N+](=O)[O-])cc1

Substance | Km [1] [mM] | kcat/Km [1] [M⁻¹ s⁻¹] | Km [2] [mM] | kcat/Km [2] [M⁻¹ s⁻¹] | Km [3] [mM] | kcat/Km [3] [M⁻¹ s⁻¹]
Rv1430 (PE16), full-length (Mycobacterium tuberculosis H37Rv) | 5.2 | 65500 | 5.15 | 104000 | 10 | 30500
PE-PPE domain of Rv1430 (Mycobacterium tuberculosis H37Rv) | 4.5 | 40400 | 4.2 | 59200 | 5.6 | 17600
